Results from US6548552B1 (priority 1997, dated 2003).

Each substance was assayed on TSST-1 production by S. aureus. Details: each agent at the concentration of b78: ascorbic acid 0.06%, propyl gallate 0.1%, delta-tocopherol 2.0%, cysteine 0.1%, N-acetyl-cysteine 0.2%, thiodipropionic acid 0.02%, bisulfites 0.05%, caffeine 0.025%, glutathione 0.2%.

Substance | effect on bacterial toxin production (in words)
beta-mercaptoethanol | reduced toxin production
delta-tocopherol | reduced toxin production
potassium bisulfite | exception
sodium bisulfite | reduced toxin production
thiodipropionic acid | reduced toxin production
